Compound potency records, mixed from different reports. Data source: NIAID ChemDB in PubChem.

Common to all: tests in culture; species: HIV-1

An empty or dashed field is not shown. Fold resistance: result on the changed form divided by that on wild type. Two numbers with a dash give a range or band. ECn: concentration that inhibits the pathogen or its effect by n%. Conditions beyond the fields shown may differ between rows. Percent inhibition refers to the dose given; in toxicity tests it is the harm to the cells.

SMILES	strain	mutations	cells	read by	setting	measure	tested at	result
CC(C)C1=C2[C@H]3CC[C@@H]4[C@@]5(C)CC[C@H](OC(=O)[C@H]6C[C@@H](C(=O)O)C6(C)C)C(C)(C)[C@@H]5CC[C@@]4(C)[C@]3(C)CC[C@@]2([C@@H](O)CNC(=O)[C@@H](NC(=O)c2ccc(Cl)cc2)C(C)O)CC1=O	92HT599		MT-2	p24 / ELISA		EC50		<1 µM
O=C(C(=O)N1CCN(C(=O)c2ccccc2)CC1)c1c[nH]c2cc(Cl)c(Cl)cc12			HeLa + HELA CD4+/CCR5	luciferase		inhibition	10 µM	>98%
O=C1Nc2ccc(Cl)cc2[C@@](/C=C/C2CC2)(C(F)(F)F)N1		RT-V108I				fold resistance		<6
CN(C[C@@H](CCN1CCC(CCCc2ccccc2)CC1)c1cccc(Cl)c1)S(=O)(=O)c1ccccc1	YU2		PBMC	p24		EC95		50 µM
O=C(C(=O)N1CCN(C(=O)c2cccc3ccsc23)CC1)c1c[nH]c2cccc(Cl)c12			HeLa + HELA CD4+/CCR5	luciferase		inhibition	10 µM	>98%
Nc1nc(=O)n([C@H]2C=C[C@@H](CO)O2)cc1F	NL4-3 WT		MT-4	p24		EC90		1.2 µM
CC(C)[C@H](NC(=O)OCc1ccccn1)C(=O)N[C@@H](Cc1ccccc1)[C@@H](O)C[C@H](Cc1ccccc1)NC(=O)OCc1cccnc1	NL4-3	PR-L10R L63P V82T I84V	MT-4	p24		EC95		1.5 µM
CC(C)C1=C2[C@H]3CC[C@@H]4[C@@]5(C)CC[C@H](OC(=O)[C@H]6C[C@@H](C(=O)O)C6(C)C)C(C)(C)[C@@H]5CC[C@@]4(C)[C@]3(C)CC[C@@]2([C@@H](O)CN(CCN(C)C)Cc2cccc(Cl)c2)CC1=O	92HT599		MT-2	p24 / ELISA		EC50		<1 µM
COc1ccc(S(=O)(=O)N(CC(C)C)C[C@@H](O)[C@@H]2CCCCCCCCCOc3c(O)cccc3C(=O)N2)cc1	LAI		MT-2	cytopathic effect / MTT		EC75		>1 µM
CC(C)C1=C2[C@H]3CC[C@@H]4[C@@]5(C)CC[C@H](OC(=O)[C@H]6C[C@@H](C(=O)O)C6(C)C)C(C)(C)[C@@H]5CC[C@@]4(C)[C@]3(C)CC[C@@]2(CCNCC(C)(C)NC(=O)CN2CCOCC2)CC1=O	92HT599		MT-2	p24 / ELISA		EC50		<1 µM
C[C@H]1CO[C@@H]2Cn3cc(C(=O)NCc4ccc(F)cc4F)c(=O)c(O)c3C(=O)N12	NL4-3	Y143R	CBMC	RT activity		fold resistance		1.7
O=C(C(=O)N1CCN(C(=O)c2ccccc2)CC1)c1c[nH]c2c(Br)cccc12			HeLa + HELA CD4+/CCR5	luciferase		inhibition	10 µM	>98%
CC1(C)[C@@H](O[C@H]2O[C@H](C(=O)O)[C@@H](O)[C@H](O)[C@H]2O[C@@H]2O[C@H](C(=O)O)[C@@H](O)[C@H](O)[C@H]2O)CC[C@]2(C)[C@H]3C(=O)C=C4[C@@H]5C[C@@](C)(C(=O)O)CC[C@]5(C)CC[C@@]4(C)[C@]3(C)CC[C@@H]12	IIIB		MOLT-4	RT activity	9 d	inhibition	1200 µM	78.5%
CCC(=O)c1ccc(F)c([C@@H]2C[C@@H]2NC(=O)Nc2ccc(C#N)cn2)c1O	LAI	NNRTI-resistant (RT H221Y)	TZM-bl	β-galactosidase / luminescence		fold resistance		1.3
CC1(C)c2nc(C(=O)NCc3ccc(F)cc3)c(O)c(=O)n2CCN1CC(=O)N1CCCC1			MT-4	p24		EC95		<1 µM
O=C1Nc2ccc(F)c(F)c2[C@@](C#CC2CC2)(C(F)(F)F)N1		RT-K101E				fold resistance		<13.3
CN1C(=O)CN2CCn3c(nc(C(=O)NCc4ccc(F)cc4)c(O)c3=O)C1C2			MT-4	p24		EC95		<50 µM
O=C(O)c1cc(-n2cccc2)ccc1Cl	92US657 R5 CLADE B		PBMC + MT-2	p24		EC90		133 µM
Nc1cccc(C(=O)N2CCN(C(=O)C(=O)c3c[nH]c4c(F)ccc(F)c34)CC2)c1			HeLa + HELA CD4+/CCR5	luciferase		inhibition	10 µM	>98%
Nc1nc2c(ncn2[C@H]2C=C[C@@H](CO)C2)c(=O)[nH]1			MT-4			EC80		50 µM
CC(C)C1=C2[C@H]3CC[C@@H]4[C@@]5(C)CC[C@H](OC(=O)[C@H]6C[C@@H](C(=O)O)C6(C)C)C(C)(C)[C@@H]5CC[C@@]4(C)[C@]3(C)CC[C@@]2(CC(=O)NCC(C)(C)NC(=O)c2ccc3nc[nH]c3c2)CC1=O	92HT599		MT-2	p24 / ELISA		EC50		<1 µM
CC(=O)N1CCn2c(nc(C(=O)NCc3ccc(F)cc3)c(O)c2=O)C1CN(C)C			MT-4	p24		EC95		<50 µM
O=C(C(=O)N1CCN(C(=O)c2cc(Cl)ccc2S)CC1)c1c[nH]c2cccc(F)c12			HeLa + HELA CD4+/CCR5	luciferase		inhibition	10 µM	>98%
CC(C)C1=C2[C@H]3CC[C@@H]4[C@@]5(C)CC[C@H](OC(=O)[C@H]6C[C@@H](C(=O)O)C6(C)C)C(C)(C)[C@@H]5CC[C@@]4(C)[C@]3(C)CC[C@@]2(CCNC(=O)C2CCNCC2)CC1=O	92HT599		MT-2	p24 / ELISA		EC50		<1 µM
COc1cccc2[nH]cc(C(=O)C(=O)N3CCN(C(=O)c4cccc(N)c4)C[C@H]3C)c12			HeLa + HELA CD4+/CCR5	luciferase		inhibition	10 µM	>98%
CN(CC1c2nc(C(=O)NCc3ccc(F)cc3)c(O)c(=O)n2CCN1C)C(=O)c1ccccn1			MT-4	p24		EC95		1–10 µM

The last 3 rows once more:

SMILES	strain	mutations	cells	read by	setting	measure	tested at	result
CC(C)C1=C2[C@H]3CC[C@@H]4[C@@]5(C)CC[C@H](OC(=O)[C@H]6C[C@@H](C(=O)O)C6(C)C)C(C)(C)[C@@H]5CC[C@@]4(C)[C@]3(C)CC[C@@]2(CCNC(=O)C2CCNCC2)CC1=O	92HT599		MT-2	p24 / ELISA		EC50		<1 µM
COc1cccc2[nH]cc(C(=O)C(=O)N3CCN(C(=O)c4cccc(N)c4)C[C@H]3C)c12			HeLa + HELA CD4+/CCR5	luciferase		inhibition	10 µM	>98%
CN(CC1c2nc(C(=O)NCc3ccc(F)cc3)c(O)c(=O)n2CCN1C)C(=O)c1ccccn1			MT-4	p24		EC95		1–10 µM